The values below come from patent publication US20030191083.

Protein sequences, listed by entry. Tags and fused reporters are not part of them. Lines headed by an entry give the natural chain unless they say otherwise; changes in a name come on top.
UniProt A8YYS2: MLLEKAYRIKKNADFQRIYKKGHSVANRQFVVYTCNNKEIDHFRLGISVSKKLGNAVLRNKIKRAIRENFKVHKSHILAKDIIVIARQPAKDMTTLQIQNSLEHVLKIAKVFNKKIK

In the data set the target is T1, RNase P protein (SPP, SP protein) (Staphylococcus aureus) (UniProt A8YYS2).
T1 sequence: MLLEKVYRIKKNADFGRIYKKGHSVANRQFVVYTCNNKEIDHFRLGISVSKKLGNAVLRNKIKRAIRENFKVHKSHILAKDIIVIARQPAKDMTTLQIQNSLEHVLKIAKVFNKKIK
Description: EMSA. The settings on record: gel shift showed specific binding; purified recombinant protein; label: 3'-end label.

Construct, isoform or probe ends are uncertain for at least one entry.

“GUUCUGAUAUUUUGGGUAAUCGCUAUAUUAUAUAGAGGAAAGUCCAUGCUCACACAGUCUGAGAUGAUUGUAGUGUUCGUGCUUGAUGAAACAAUAAAUCAAGGCAUUAAUUUGACGGCAAUGAAAUAUCCUAAGUCUUUCGAUAUGGAUAGAGUAAUUUGAAAGUGCCACAGUGACGUAGCUUUUAUAGAAAUAUAAAAGGUGGAACGCGGUAAACCCCUCGAGUGAGCAAUCCAAAUUUGGUAGGAGCACUUGUUUAACGGAAUUCAACGUAUAAACGAGACACACUUCGCGAAAUGAAGUGGUGUACGACAGAUGGUUAUCACCUGAGUACCAGUGUGACUAGUGCACGUGAUGAGUACGAUGGAACAGAACAUGGCUUAUAGAAAUAUCACUACUA [S. aureus RNase P RNA (SP RNA)]”: the binding result is “binds”.
